Anti-infective test results gathered from many reports (values: NIAID ChemDB through PubChem).

All rows: whole-cell or culture tests; organism: Candida albicans; endpoint: zone

Zones are inhibition diameters on agar. Blank or dashed fields: not listed here. Conditions beyond the fields shown may differ between rows.

compound	dose	strain or isolate	read by	value
CSC1=NC(c2ccccc2[N+](=O)[O-])C(C#N)=C(N)N1	100 µg/mL	MTCC 227	agar diffusion	20 mm
C=CC(C)(C)c1cc(C2CC(=O)c3c(cc(O)c(CC=C(C)C)c3O)O2)c(O)cc1O	2 mg/mL	hemoculture isolate 16655	agar diffusion / agar	0 mm
COc1cc2c(cc1-c1cc(-c3ccc(C)cc3)nc(N)n1)CCC(C)(C)O2	100 µg/mL	-	agar diffusion	11 mm
O=C1C(Cl)C(c2ccc(C(F)(F)F)cc2)N1Nc1nc2ccccc2n2nnnc12	50 µg/mL	ATCC 2091	agar diffusion	7 mm
NS(=O)(=O)c1ccc(C2C=C(c3ccc(Cl)cc3)CC2c2ccccc2)cc1	1000 µg/mL	ATCC 2091	-	23 mm
C[C@H]1[C@H](O)[C@@H](C)/C=C/C=C/C=C/C=C/C=C/C=C/C=C/[C@H](O[C@@H]2O[C@H](C)[C@@H](O)[C@H](N)[C@@H]2O)C[C@@H]2O[C@](O)(C[C@@H](O)C[C@@H](O)CC[C@H](O)[C@@H](O)C[C@@H](O)CC(=O)O[C@H]1C)C[C@H](O)[C@H]2C(=O)O	100 µg/disc	CA2	agar diffusion	15 mm
O=C(COc1ccc(-c2nc(-c3ccccc3)c(-c3ccccc3)s2)cc1)CN1CCCC1	100 µg/mL	ATCC 10231	agar diffusion / agar	26 mm
C=C1CC[C@H](C)[C@@]2(C)[C@@H](OC(=O)CC(C)C)C[C@@H](OC(C)=O)[C@]3(CO3)[C@@H]2[C@H](OC(C)=O)[C@@]2(O)[C@H](C1)OC(=O)[C@@H]2C	200 µg/mL	-	agar diffusion / agar	17 mm
COc1ccc(/C=C2\SC(=O)N(CC(=O)c3ccc([N+](=O)[O-])cc3)C2=O)cc1	5000 µg/mL	ATCC 90028	agar diffusion / agar	16 mm
COc1cc2c(cc1-c1cc(-c3ccc(N(C)C)cc3)nc(N)n1)CCC(C)(C)O2	100 µg/mL	-	agar diffusion	16 mm
CSC1=NC(c2cccc3cc4ccccc4cc23)C(C#N)=C(N)N1	25 µg/mL	MTCC 227	agar diffusion	17 mm
CC1CCC(NC(=O)NCCn2c(-c3ccccc3)nc3ccc([N+](=O)[O-])cc3c2=O)CC1	100 µg/mL	ATCC 66027	broth dilution / agar diffusion	15 mm
S=c1nc2c(n[nH]1)Nc1ccccc1N2	1000 µg/mL	ATCC 2091	-	24 mm
NC(=S)c1ccc(OC(=O)CN2CCOCC2)cc1	100 µg/mL	ATCC 10231	agar diffusion / agar	20 mm
Cc1ccc2c(c1)C1(SCC(=O)N1c1c(C)n(C)n(-c3ccccc3)c1=O)C(=O)N2CCCCCCN1C(=O)C2(c3ccccc31)c1c(C)nn(-c3ccccc3)c1Oc1c2c(C)nn1-c1ccccc1	100 µg/mL	MTCC 227	agar diffusion	17 mm
COc1ccc(/C=C2\SC(=O)N(CC(=O)c3ccc(C#N)cc3)C2=O)cc1	5000 µg/mL	ATCC 90028	agar diffusion / agar	14 mm
C[C@H]1[C@H](O)[C@@H](C)/C=C/C=C/C=C/C=C/C=C/C=C/C=C/[C@H](O[C@@H]2O[C@H](C)[C@@H](O)[C@H](N)[C@@H]2O)C[C@@H]2O[C@](O)(C[C@@H](O)C[C@@H](O)CC[C@H](O)[C@@H](O)C[C@@H](O)CC(=O)O[C@H]1C)C[C@H](O)[C@H]2C(=O)O	1000 µg/mL	-	agar diffusion / agar	17 mm
O=C1C(Cl)C(c2ccc(O)cc2)N1Nc1nc2ccccc2n2nnnc12	50 µg/mL	ATCC 2091	agar diffusion	9 mm
COc1ccc(/C=C2\SC(=O)N(CC(=O)c3ccc4ccccc4c3)C2=O)cc1	5000 µg/mL	ATCC 90028	agar diffusion / agar	16 mm
Cc1c(N2C(=O)CSC23C(=O)N(CCCCCCBr)c2ccc(F)cc23)c(=O)n(-c2ccccc2)n1C	100 µg/mL	MTCC 227	agar diffusion	17 mm
CCOC(=O)C(=O)/C(N=Nc1ccccc1)=C(\O)c1ccc(Cl)cc1	0.002 µg/mL	ATCC 10231	agar diffusion / agar	16 mm
COc1ccc(/C=C2\SC(=O)N(CC(=O)c3ccc(O)c(C(N)=O)c3)C2=O)cc1	5000 µg/mL	ATCC 90028	agar diffusion / agar	14 mm
COc1ccc(C2SCC(=O)N2Nc2nc3ccccc3n3nnnc23)cc1	100 µg/mL	ATCC 2091	agar diffusion	10 mm
CN1CCN(c2nc(Nc3ccc(C#N)c(C(F)(F)F)c3)nc(Oc3ccnc4ccccc34)n2)CC1	100 µg/mL	MTCC 183	agar	<10 mm
C=C1CC[C@@H](OC(C)=O)[C@]2(C)[C@H](OC(C)=O)[C@H](OC(=O)CC(C)C)[C@H](OC(C)=O)[C@@]3(CO3)[C@H]2[C@@H](OC(C)=O)[C@@]2(O)[C@H](C)C(=O)O[C@H]2[C@H]1Cl	200 µg/mL	-	agar diffusion / agar	8 mm
COc1cc(OC)cc(C2CC(c3ccc(OC)cc3O)=NN2c2ccc(S(N)(=O)=O)cc2)c1	4 mg/mL	MTCC 227	agar diffusion / agar	0 mm
CS(=O)(=O)c1nc(N)c(C#N)c(-c2ccccc2O)n1	100 µg/mL	MTCC 227	agar diffusion	19 mm
CCOC(=O)C1=NN(c2ccccc2)C2=Nc3nccc(-c4nn(-c5ccccc5)cc4-c4ccc([N+](=O)[O-])cc4)c3C(=O)C12	5 mg/mL	-	agar diffusion / agar	9 mm
O=C(NCCn1c(-c2ccccc2)nc2ccc([N+](=O)[O-])cc2c1=O)NC1CCCCC1	100 µg/mL	ATCC 66027	broth dilution / agar diffusion	13 mm
O=c1[nH][nH]c(-c2ccc(Br)cc2)c(N=Nc2ccccc2)c1=O	0.002 µg/mL	ATCC 10231	agar diffusion / agar	16.5 mm
O=C1C(Cl)C(c2ccccc2F)N1Nc1nc2ccccc2n2nnnc12	100 µg/mL	ATCC 2091	agar diffusion	10 mm
NC(=S)N/N=C/c1ccccc1O	2 mg/mL	-	agar diffusion / agar	12 mm
CCc1cc(N)c(/C=N/NC(=O)N/N=C/c2cc(O)c(CC)cc2N)cc1O.[Cl][Cr+2]	1 mg/mL	-	agar diffusion / agar	12 mm
CCOc1ccc(N2C(=O)N(c3ccc(Cl)c(C(F)(F)F)c3)C(=N)C2=S)cc1	5 mg/mL	IMRU-3669	agar diffusion / agar	17 mm
COc1ccc(C2=CC(c3ccc(S(N)(=O)=O)cc3)C(c3ccccc3)C2)cc1	1000 µg/mL	ATCC 2091	-	22 mm
OC(Cn1cncn1)(Cn1cncn1)c1ccc(F)cc1F	26000 µg/mL	-	agar diffusion / agar	30.64 mm
COc1ccc(/C=C2\SC(=O)N(CC(=O)c3ccc(OC)cc3)C2=O)cc1	5000 µg/mL	ATCC 90028	agar diffusion / agar	18 mm
COc1ccc(N2C(=O)N(c3ccc(Cl)c(C(F)(F)F)c3)C(=N)C2=S)cc1	5 mg/mL	IMRU-3669	agar diffusion / agar	16.5 mm
O=C(NCCn1c(-c2ccccc2)nc2ccc([N+](=O)[O-])cc2c1=O)Nc1ccccc1Cl	100 µg/mL	ATCC 66027	broth dilution / agar diffusion	16 mm
N=C1C(=S)N(c2ccc(F)cc2)C(=O)N1c1cc(Cl)cc(Cl)c1	5 mg/mL	IMRU-3669	agar diffusion / agar	17 mm
CC(=O)N1CCN(c2ccc(OC[C@H]3CO[C@](Cn4ccnc4)(c4ccc(Cl)cc4Cl)O3)cc2)CC1	10 mg/disc	-	agar diffusion	11.5 mm
COc1cc(N2C(=N)C(=S)N(c3ccc(F)cc3)C2=O)ccc1-c1ccc(N2C(=N)C(=S)N(c3ccc(F)cc3)C2=O)cc1OC	5 mg/mL	IMRU-3669	agar diffusion / agar	21 mm
COc1ccc(C2CC(c3ccc(F)cc3)=NN2c2ccc(S(N)(=O)=O)cc2)cc1OC	4 mg/mL	MTCC 227	agar diffusion / agar	0 mm
Cc1nn(-c2ccccc2)c2c1C1(C(=O)N(CCCCCCN3C(=O)C4(SCC(=O)N4c4c(C)n(C)n(-c5ccccc5)c4=O)c4cc(F)ccc43)c3ccc(F)cc31)c1c(C)nn(-c3ccccc3)c1O2	100 µg/mL	MTCC 227	agar diffusion	21 mm
C(=N\Nc1nnc2c(n1)Nc1ccccc1N2)/c1ccccc1	1000 µg/mL	ATCC 2091	-	22 mm
O=C(NCCn1c(-c2ccccc2)nc2ccc([N+](=O)[O-])cc2c1=O)Nc1cc(C(F)(F)F)ccc1Cl	100 µg/mL	ATCC 66027	broth dilution / agar diffusion	14 mm
COc1ccc(/C=C2\SC(=O)N(CC(=O)c3ccc(Cl)cc3)C2=O)cc1	5000 µg/mL	ATCC 90028	agar diffusion / agar	16 mm
COc1ccc(C2=NN(c3ccc(S(N)(=O)=O)cc3)C(c3ccc(OC)cc3OC)C2)c(O)c1	4 mg/mL	MTCC 227	agar diffusion / agar	0 mm
O=C1CSC(c2ccc(F)cc2)N1Nc1nc2ccccc2n2nnnc12	50 µg/mL	ATCC 2091	agar diffusion	8 mm
NC(=S)c1ccc(OC(=O)CN2CCCC2)cc1	100 µg/mL	ATCC 10231	agar diffusion / agar	23 mm
O=C1C(Cl)C(c2ccc(Cl)cc2)N1Nc1nc2ccccc2n2nnnc12	100 µg/mL	ATCC 2091	agar diffusion	10 mm
CCOC(=O)c1[nH]nc(-c2ccc(F)cc2)c1N=Nc1ccccc1	0.002 µg/mL	ATCC 10231	agar diffusion / agar	16 mm
Cc1nn(-c2ccccc2)c2c1C1(C(=O)N(CCCCCCN3C(=O)C4(SCC(=O)N4c4c(C)n(C)n(-c5ccccc5)c4=O)c4ccccc43)c3ccccc31)c1c(C)nn(-c3ccccc3)c1O2	100 µg/mL	MTCC 227	agar diffusion	17 mm
CC1(C)CC(=O)c2cc(C3CC(c4ccc(Cl)cc4)=NN3C(N)=S)[nH]c2C1	1000 µg/mL	ATCC 2091	-	23 mm
O=C(CN1C(=O)S/C(=C\c2c(Cl)cccc2Cl)C1=O)c1ccc(Cl)cc1	5000 µg/mL	ATCC 90028	agar diffusion / agar	18 mm
COc1ccc(-c2cc(-c3cc4c(cc3OC)OC(C)(C)CC4)nc(N)n2)cc1	100 µg/mL	-	agar diffusion	10 mm
NS(=O)(=O)c1ccc(C2C=C(c3ccc(Br)cc3)C(Br)C2c2ccccc2)cc1	1000 µg/mL	ATCC 2091	-	27 mm
CC(C(=O)c1ccccc1)N1C(=O)S/C(=C\c2c(Cl)cccc2Cl)C1=O	5000 µg/mL	ATCC 90028	agar diffusion / agar	24 mm
O=C1CSC(c2ccccc2[N+](=O)[O-])N1Nc1nc2ccccc2n2nnnc12	100 µg/mL	ATCC 2091	agar diffusion	9 mm
N=C1C(=S)N(c2ccc(F)cc2)C(=O)N1c1ccc(Oc2ccc(N3C(=N)C(=S)N(c4ccc(F)cc4)C3=O)cc2)cc1	5 mg/mL	IMRU-3669	agar diffusion / agar	17 mm
Clc1ccc(Nc2ccc(-c3nc(-c4ccccc4)c(-c4ccccc4)s3)cc2)cc1	100 µg/mL	ATCC 10231	agar diffusion / agar	23 mm
O=C1C(Cl)C(c2ccccc2)N1Nc1nc2ccccc2n2nnnc12	50 µg/mL	ATCC 2091	agar diffusion	7 mm
O=S(=O)(NC(=S)Nc1ccccc1)c1ccc(N2N=C(c3ccc(Cl)cc3)C(Br)C2c2ccccc2)cc1	1000 µg/mL	ATCC 2091	-	25 mm
c1ccc(-c2nc(-c3ccc(N4CCOCC4)cc3)sc2-c2ccccc2)cc1	100 µg/mL	ATCC 10231	agar diffusion / agar	20 mm
O=c1[nH][nH]c(-c2ccccc2)c(N=Nc2ccccc2)c1=O	0.002 µg/mL	ATCC 10231	agar diffusion / agar	17.5 mm
N#Cc1ccc(Nc2nc(Oc3ccnc4ccccc34)nc(N3CCN(Cc4ccccc4)CC3)n2)cc1C(F)(F)F	100 µg/mL	MTCC 183	agar	<10 mm
C[C@H]1[C@H](O)[C@@H](C)/C=C/C=C/C=C/C=C/C=C/C=C/C=C/[C@H](O[C@@H]2O[C@H](C)[C@@H](O)[C@H](N)[C@@H]2O)C[C@@H]2O[C@](O)(C[C@@H](O)C[C@@H](O)CC[C@H](O)[C@@H](O)C[C@@H](O)CC(=O)O[C@H]1C)C[C@H](O)[C@H]2C(=O)O	100 µg/mL	CN	agar diffusion	10 mm
CS(=O)(=O)c1nc(N)c(C#N)c(-c2ccccc2Cl)n1	50 µg/mL	MTCC 227	agar diffusion	18 mm
Cc1ccc(N2C(=N)C(=S)N(c3ccc(F)cc3)C2=O)cc1	5 mg/mL	IMRU-3669	agar diffusion / agar	19.5 mm

For reference, 8 entries again:

CCOC(=O)c1[nH]nc(-c2ccc(F)cc2)c1N=Nc1ccccc1 ; dose: 0.002 µg/mL ; strain or isolate: ATCC 10231 ; read by: agar diffusion / agar ; value: 16 mm
O=C(NCCn1c(-c2ccccc2)nc2ccc([N+](=O)[O-])cc2c1=O)NC1CCCCC1 ; dose: 100 µg/mL ; strain or isolate: ATCC 66027 ; read by: broth dilution / agar diffusion ; value: 13 mm
C=C1CC[C@H](C)[C@@]2(C)[C@@H](OC(=O)CC(C)C)C[C@@H](OC(C)=O)[C@]3(CO3)[C@@H]2[C@H](OC(C)=O)[C@@]2(O)[C@H](C1)OC(=O)[C@@H]2C ; dose: 200 µg/mL ; read by: agar diffusion / agar ; value: 17 mm
CC1CCC(NC(=O)NCCn2c(-c3ccccc3)nc3ccc([N+](=O)[O-])cc3c2=O)CC1 ; dose: 100 µg/mL ; strain or isolate: ATCC 66027 ; read by: broth dilution / agar diffusion ; value: 15 mm
COc1ccc(C2=CC(c3ccc(S(N)(=O)=O)cc3)C(c3ccccc3)C2)cc1 ; dose: 1000 µg/mL ; strain or isolate: ATCC 2091 ; value: 22 mm
CC(=O)N1CCN(c2ccc(OC[C@H]3CO[C@](Cn4ccnc4)(c4ccc(Cl)cc4Cl)O3)cc2)CC1 ; dose: 10 mg/disc ; read by: agar diffusion ; value: 11.5 mm
S=c1nc2c(n[nH]1)Nc1ccccc1N2 ; dose: 1000 µg/mL ; strain or isolate: ATCC 2091 ; value: 24 mm
O=C1C(Cl)C(c2ccc(C(F)(F)F)cc2)N1Nc1nc2ccccc2n2nnnc12 ; dose: 50 µg/mL ; strain or isolate: ATCC 2091 ; read by: agar diffusion ; value: 7 mm